Test results as given in patent US20100247549A1.

What was measured:
[1] = molecular target: Envelope glycoprotein (E) of antigenic variant DENV-4 v3 (Glu for Lys at position 174 in E) (dengue virus type 4) (UniProt P09866); test: equilibrium ELISA; ELISA Kd against that for parental DENV-4 (FRhL)
[2] = molecular target: Envelope glycoprotein (E) of antigenic variant DENV-4 v4 (Leu for Pro at position 176 in E) (dengue virus type 4) (UniProt P09866); test: equilibrium ELISA; ELISA Kd against that for parental DENV-4 (C6/36)

## Humanized IgG 5H2 ΔD (IgG1 5H2 with a 9-amino-acid deletion, positions 231-239, at the N-terminus of the CH2 domain) (antibody)
[1]
  Fold Reduction: > 100 fold
[2]
  Fold Reduction: 2.29 fold
